Pooled drug test results. Numbers come from NIAID ChemDB, via PubChem.

Common to all: tests in culture; organism: HIV-1; cells: CEM; measure: EC50

ECn: concentration that inhibits the pathogen or its effect by n%. An empty or dashed field is not shown. Conditions beyond the fields shown may differ between rows.

| compound | strain or isolate | changes | method | setting | value |
|---|---|---|---|---|---|
| Nc1ccn([C@H]2CC[C@@H](CO)O2)c(=O)n1 | IIIB | - | syncytia | - | 0.04 µM |
| O=C(OC[C@H]1OC(=O)c2ccccc21)c1ccccc1 | - | - | - | - | >10 µM |
| Cc1ccnc2c1NC(=O)c1cccnc1N2C1CC1 | IIIB | RT-V179D | syncytia | - | 0.02 µg/mL |
| S=C(N/N=C(/c1ccccc1)c1ccccn1)Nc1ccccc1 | VSV-G-pseudotyped NL4-3 | (delta)vpr | luciferase | - | 0.34 µM |
| CC(C)Nc1cccnc1N1CCN(C(=O)c2cc3cc(NS(C)(=O)=O)ccc3[nH]2)CC1 | Y-1 (RT-K103N) | RT-K103N | cytopathic effect | - | 0.6 µg/mL |
| Nc1nc(=O)n([C@@H]2CS[C@H](CO)O2)cc1F | LAV-1 | - | cytopathic effect | 14 d | 1.01 µM |
| CCOCn1c(Cc2ccccc2)c(C(C)C)c(=O)[nH]c1=O | IIIB | RT-L100I | syncytia | - | 0.007 µg/mL |
| CO[C@@H]1N([C@H]2C=C[C@@H](CO)O2)C(=O)NC(=O)[C@@]1(C)Cl | RF | - | cytopathic effect / XTT | - | 375 µM |
| Cc1cn([C@@H]2O[C@H](CO[Si](C)(C)C(C)(C)C)C3(OS(=O)(=O)C=C3N)[C@H]2O[Si](C)(C)C(C)(C)C)c(=O)n(C)c1=O | IIIB | - | - | - | 0.03 µM |
| Cc1ccnc2c1NC(=O)c1cccnc1N2C1CC1 | Y-1 (RT-K103N) | RT-K103N | cytopathic effect | - | 2.35 µg/mL |
| CN[C@@H]1[C@H](O[C@@H]2OC[C@@H](O)[C@H](O)[C@H]2O)[C@@H](O)[C@H](O[C@H]2c3cc(C)c(C(=O)N[C@H](C)C(=O)O)c(O)c3-c3c(cc4c(c3O)C(=O)c3cc(OC)cc(O)c3C4=O)[C@@H]2O)O[C@@H]1C | IIIB | - | syncytia | - | 2.8 µg/mL |
| O=C(C[C@@H](O)CCc1ccc(O)c(O)c1)O[C@H]1Cc2c(O)cc(O)cc2O[C@@H]1c1ccc(O)c(O)c1 | RF | - | cytopathic effect / XTT | - | 21.1 µM |
| CCO[C@@H]1N([C@H]2C=C[C@@H](CO)O2)C(=O)NC(=O)[C@@]1(C)Br | RF | - | cytopathic effect / XTT | - | >14 µM |
| Cc1cn([C@H]2C[C@H](N=[N+]=[N-])[C@@H](CO)O2)c(=O)[nH]c1=O | NL4-3 | - | RT activity | - | <0.045 µM |
| CC(=O)c1ccc(C)cc1NC(C(N)=O)c1c(Cl)cccc1Cl | IIIB | - | syncytia | - | 0.005 µg/mL |
| CC(C)=CCN1Cc2c(F)ccc3[nH]c(=S)n(c23)C[C@@H]1C | - | - | - | - | 0.0365 µM |
| Cc1cn([C@@H]2O[C@H](CO[Si](C)(C)C(C)(C)C)C3(OS(=O)(=O)C=C3N)[C@H]2O[Si](C)(C)C(C)(C)C)c(=O)n(C)c1=O | IIIB | RT-M184V | syncytia | - | 0.019 µg/mL |
| CO[C@H]1N([C@H]2C=C[C@@H](CO)O2)C(=O)NC(=O)[C@]1(C)Br | RF | - | cytopathic effect / XTT | - | 54.6 µM |
| CN(C)C1C(=O)C(C(=O)NCNC(CCS(C)=O)C(=O)[O-])=C(O)C2(O)C(=O)C3=C(O)c4c(O)cccc4C(C)(O)C3CC12.[Na+] | RF | - | cytopathic effect / XTT | - | 100 µM |
| C=C(C)OC(=O)N1c2cc(Cl)ccc2NC(=S)C1(C)C | IIIB | - | - | - | 0.0013 µM |
| Cc1cn([C@@H]2O[C@H](CO[Si](C)(C)C(C)(C)C)[C@]3(C(N)=CS(=O)(=O)N3C)[C@H]2O[Si](C)(C)C(C)(C)C)c(=O)n(C)c1=O | - | RT-K103N | cytopathic effect | - | >250 µM |
| CC(C)=CCOc1cc(NC(=S)c2ccoc2C)ccc1Cl | E-2 (RT-V106A) | RT-V106A | cytopathic effect | - | 0.0082 µg/mL |
| CC(C)=CCOc1cc(NC(=S)c2ccoc2C)ccc1Cl | IIIB | - | syncytia | - | 0.001 µg/mL |
| Cc1occc1C(=S)Nc1ccc(Cl)c(/C=N/OC(C)(C)C)c1 | IIIB | RT-E138K | syncytia | - | 0.075 µg/mL |
| Cc1c(O)cccc1C(=O)N[C@@H](CCc1ccccc1)[C@H](O)C(=O)N1C[C@@H](Cl)C[C@H]1C(=O)NC(C)(C)C | IIIB | - | p24 | - | <0.73 µM |
| Cc1cc(S(=O)(=O)Nc2n[nH]c(N)n2)c(S)cc1Cl | - | - | - | - | 26 µM |
| CC(C)=CCOc1cc(NC(=S)c2ccoc2C)ccc1Cl | IIIB | - | syncytia | - | 0.001 µg/mL |
| Cc1c(O)cc(F)cc1C(=O)N[C@@H](Cc1ccc2ccccc2c1)[C@H](O)C(=O)N1C[C@@H](Cl)C[C@H]1C(=O)NC(C)(C)C | IIIB | - | p24 | - | <0.031 µM |
| CN=C1N(C)C(=O)OC12[C@@H](CO[Si](C)(C)C(C)(C)C)O[C@@H](n1cc(C)c(=O)n(C)c1=O)[C@@H]2O[Si](C)(C)C(C)(C)C | IIIB | - | syncytia | - | ≥35 µM |
| C[C@]1(Br)C(=O)NC(=O)N([C@H]2C=C[C@@H](CO)O2)[C@@H]1N=[N+]=[N-] | RF | - | cytopathic effect / XTT | - | 0.918 µM |
| Cc1cn([C@H]2C[C@H](N=[N+]=[N-])[C@@H](CO)O2)c(=O)[nH]c1=O | IIIB | RT-Y181C | syncytia | - | 0.001 µg/mL |
| CCCN(C)C(=O)Oc1nsnc1-c1c(Cl)ccc(N)c1Cl | IIIB | - | cytopathic effect / MTT | - | 0.024 µM |
| CC(C)Nc1cccnc1N1CCN(C(=O)c2cc3cc(NS(C)(=O)=O)ccc3[nH]2)CC1 | IIIB | - | syncytia | - | 0.007 µg/mL |
| C[C@@]1(Br)C(=O)NC(=O)N([C@H]2C=C[C@@H](CO)O2)[C@H]1O | RF | - | cytopathic effect / XTT | - | >200 µM |
| Cc1cc(O)c(C)c(C(=O)N[C@@H](Cc2ccc(-c3ccccc3)cc2)[C@H](O)C(=O)N2C[C@@H](Cl)C[C@H]2C(=O)NC(C)(C)C)c1 | IIIB | - | p24 | - | <0.048 µM |
| Nc1ccn([C@H]2CC[C@@H](CO)O2)c(=O)n1 | IIIB | - | syncytia | - | 0.04 µM |
| CC(C)(C)NC(=O)N(Cc1ccccc1)C[C@@H](O)[C@H](Cc1ccccc1)NC(=O)[C@H](CC(N)=O)NC(=O)c1ccc2ccccc2n1 | IIIB | - | cytopathic effect / MTT | - | 0.021 µM |
| COC1(C)C(=O)NC(=O)N([C@H]2C=C[C@@H](CO)O2)[C@H]1O | RF | - | cytopathic effect / XTT | - | 7.82 µM |
| O=c1[nH]cnc2c1ncn2[C@H]1CC[C@@H](CO)O1 | IIIB | - | syncytia | - | 2.3 µM |
| NS(=O)(=O)c1ccc(Nc2c3ccccc3nc3c(C(=O)NC(CO)(CO)CO)cccc23)cc1 | RF | - | cytopathic effect / XTT | - | >3.4 µM |
| CC(C)=CCOc1cc(NC(=S)c2ccoc2C)ccc1Cl | HHA-500SN (GP120-T90I T188N T236A N289K T297I S334N T341I N386D) | gp120 T90I T188N T236A N289K T297I S334N T341I N386D | syncytia | - | 0.003 µg/mL |
| C[C@H](Cn1cnc2c(N)ncnc21)OCP(=O)(O)O | Clinical isolate DE434.4 | RT-K65R S68G T69I V75T Q151M | syncytia | - | 80 µg/mL |
| Cc1cn([C@H]2C[C@H](N=[N+]=[N-])[C@@H](CO)O2)c(=O)[nH]c1=O | IIIB | - | syncytia | - | 0.002 µM |
| C=CCNC(=S)N/N=C(\c1ccccc1)c1ccccn1 | VSV-G-pseudotyped NL4-3 | (delta)vpr | luciferase | - | 0.16 µM |
| CC(C)=CCN1Cc2cc(Cl)cc3[nH]c(=S)n(c23)C[C@@H]1C | IIIB | - | - | - | 0.06 µM |
| O/N=C1\C(=C\c2ccc3c(c2)OCO3)CCCC1C(NO)c1ccc2c(c1)OCO2 | RF | - | cytopathic effect / XTT | - | >127 µM |
| CC(=O)c1ccc(C)cc1NC(C(N)=O)c1c(Cl)cccc1Cl | IIIB | - | syncytia | - | 0.003 µg/mL |
| Cc1cn([C@@H]2O[C@H](CO[Si](C)(C)C(C)(C)C)[C@@]3(NS(=O)(=O)C=C3N)[C@H]2O[Si](C)(C)C(C)(C)C)c(=O)[nH]c1=O | - | RT-K103N | cytopathic effect | - | 5.5 µM |
| Cc1occc1C(=S)Nc1ccc(Cl)c(C(=O)OC2CCCC2)c1 | IIIB | RT-M184V | syncytia | - | 0.003 µg/mL |
| Nc1ncnc2c1ncn2[C@H]1C=C[C@@H](CO)O1 | IIIB | - | syncytia | - | 29 µM |
| CO[C@H]1N([C@H]2C=C[C@@H](CO)O2)C(=O)NC(=O)[C@]1(C)Cl | RF | - | cytopathic effect / XTT | - | 375 µM |
| Cc1cn([C@H]2C[C@H](N=[N+]=[N-])[C@@H](CO)O2)c(=O)[nH]c1=O | LAV-1 | - | cytopathic effect | - | 0.005 µM |
| Cc1cn([C@@H]2O[C@H](CO[Si](C)(C)C(C)(C)C)[C@]3(C(N)=CS(=O)(=O)N3C)[C@H]2O[Si](C)(C)C(C)(C)C)c(=O)n(C(=O)OC(C)(C)C)c1=O | - | RT-E138K | cytopathic effect | - | >10 µM |
| O/N=C1\C(=C\c2ccc3c(c2)OCCO3)CCCC1C(NO)c1ccc2c(c1)OCCO2 | RF | - | cytopathic effect / XTT | - | >165 µM |
| Nc1nc(Br)nc2c1ncn2[C@H]1CC[C@@H](CO)O1 | LAV | - | p24 | - | 1 µM |
| Cc1c(O)cccc1C(=O)N[C@@H](Cc1ccccc1)[C@H](O)C(=O)N1C[C@@H](Cl)C[C@H]1C(=O)NC(C)(C)C | IIIB | - | p24 | - | <0.11 µM |
| Cc1cn([C@H]2C[C@H](N=[N+]=[N-])[C@@H](CO)O2)c(=O)[nH]c1=O | IIIB | - | syncytia | - | 0.003 µg/mL |
| Cc1c(N)nc(N)nc1OCCOCP(=O)(O)O | Clinical isolate DE434.4 | RT-K65R S68G T69I V75T Q151M | syncytia | - | 1 µg/mL |
| C[C@H](Cn1cnc2c(N)ncnc21)OCP(=O)(O)O | IIIB | RT-E103K | syncytia | - | 1.2 µg/mL |
| Cc1cn([C@H]2C=C[C@@H](CO)O2)c(=O)[nH]c1=O | IIIB | - | syncytia | - | 0.35 µM |
| C[C@H](COc1cc(N)nc(N)n1)OCP(=O)(O)O | Clinical isolate C19 | RT-M41L V118I L210W T215Y | syncytia | - | 14 µg/mL |
| Fc1cccc(F)c1C1SCc2nc3ccccc3n21 | - | RT-L100I | cytopathic effect | - | 3.12 µM |